A mixed list of measured activities; the numbers were collected in NIAID ChemDB.

All rows: tests in culture; species: HIV-1; read-out: EC50

An empty or dashed field is not shown.

compound | conditions | strain | changes | method | cell line | value
Cc1cn([C@H]2C[C@H](N=[N+]=[N-])[C@@H](CO)O2)c(=O)[nH]c1=O |  | P022C RT D67N K70R T215F K219Q | RT-D67N K70R T215F K219Q | plaque count | HT4 + HT4-6C | 1.4 µM
Cc1ccnc2c1NC(=O)c1cccnc1N2C1CC1 |  | RTMC | RT-D67N K70R T215Y K219Q | plaque count | HT4 + HT4 LacZ-1 | 0.06 µM
CC(C)CN(C[C@@H](O)[C@H](Cc1ccccc1)NC(=O)O[C@H]1CCO[C@H]2OCC[C@H]21)S(=O)(=O)c1ccc2nc(NC3CC3)sc2c1 |  | NL4-3 | L10F L33I M36I M46I I54V K55R I62V L63P A71V G73S V82T | p24 / luminescence | MT-4 | 0.0043 µM
CCn1nc(Cc2cc(F)cc(F)c2)cc1C1CCN(C[C@H]2CN([C@@H](C(=O)O)C(C)C)C[C@@H]2c2cccc(F)c2)CC1 | 50% human serum | BaL |  | β-galactosidase | HeLa | <0.3 µM
CN[C@H]1CO[C@@H]2OCC[C@H](OC(=O)N[C@@H](Cc3cccc(OC)c3)[C@H](O)CN(CC(C)C)S(=O)(=O)c3ccc4nc(NC(C)C)sc4c3)[C@@H]21 |  | NL4-3 | L10I I15V K20R L24I V32I M36I M46I L63P K70Q V82A I84V L89M | p24 / luminescence | MT-4 | 0.016 µM
COC(=O)N[C@H](C(=O)N[C@@H](Cc1ccccc1)[C@@H](O)CN(Cc1ccc(-c2ccccn2)cc1)NC(=O)[C@@H](NC(=O)OC)C(C)(C)C)C(C)(C)C |  | IIIB | ATV-P36 atazanavir-resistant mutant | ATP | MT-2 | >0.67 µM
CCC(=O)c1ccc(F)c([C@@H]2C[C@@H]2NC(=O)Nc2ccc(C#N)cn2)c1O |  | 97ZA009 |  | absorbance | PBMC | 0.0009 µM
CC[C@H](C)[C@H](C(=O)O)N1C[C@H](CN2CCC(c3cc(Cc4ccc5ccccc5c4)nn3CC)CC2)[C@@H](c2cccc(F)c2)C1 | 50% human serum | BaL |  | β-galactosidase | HeLa | <0.3 µM
Cn1c2ccccc2c2c1cc(C#N)c(=O)n2-c1ccc([N+](=O)[O-])cc1 |  | NRTI resistant | RT-M41L D67N V118I M184V L210W T215Y | luciferase | HeLa | 0.119 µM
CC[C@H](C)[C@H](C(=O)O)N1C[C@H](CN2CCC(c3cc(Cc4ccc(Oc5ccccc5)cc4)nn3CC)CC2)[C@@H](c2cccc(F)c2)C1 | 50% human serum | BaL |  | β-galactosidase | HeLa | <0.1 µM
N#Cc1cc2[nH]c3ccccc3c2n(-c2ccc([N+](=O)[O-])cc2)c1=O |  | NNRTI-resistant | RT-K103N Y181C | luciferase | HeLa | 0.34 µM
Nc1ccn([C@H]2CC[C@@H](CO)O2)c(=O)n1 |  | HXB2 | RT-Y181C M184V | plaque count | HT4 + HT4 LacZ-1 | 0.87 µM
CO[P@](=O)(c1cc(C)cc(/C=C/C#N)c1)c1c(C(N)=O)[nH]c2ccc(Cl)c(F)c12 |  | IIIB | Y181C |  | MT-4 | 0.0028 µM
Cc1ccnc2c1NC(=O)c1cccnc1N2C1CC1 |  | AZT-resistant (RT D67N K70R T215Y) RTMCY | RT-D67N K70R T215Y | β-galactosidase | MAGI | 0.039 µM
CC(C)=CCN1Cc2cccc3[nH]c(=S)n(c23)C[C@@H]1C |  | Costatolide-resistant (RT L100I T139I) | RT-L100I T139I | XTT | CEM + CEM-SS | >35 µM
CCN(c1nc(F)ccc1NC(C)(C)C)C1CCN(C(=O)c2cc3cc(NC(=O)N4CCN(C)CC4)ccc3[nH]2)CC1 |  | IIIB | 8374-P36 GS-8374-resistant | ATP | MT-2 | 0.0135 µM
Cc1cn([C@H]2C[C@H](N=[N+]=[N-])[C@@H](CO)O2)c(=O)[nH]c1=O |  | IIIB |  | XTT | CEM + CEM-SS | 0.005 µM
Cc1ccnc2c1NC(=O)c1cccnc1N2C1CC1 |  |  | RT-M41L T215Y |  | MT-4 | <0.2 µM
Cc1ccnc2c1NC(=O)c1cccnc1N2C1CC1 |  | RTMC(184) (RT D67N K70R M184V T215F K219Q) | RT-D67N K70R M184V T215F K219Q | plaque count | HT4 + HT4 LacZ-1 | 0.04 µM
Nc1nc(NC2CC2)c2ncn([C@H]3C=C[C@@H](CO)C3)c2n1 |  | Recombinant | RT-V118I M184V | luciferase | HeLa | 8.07 µM
S=C(NCCc1cccs1)Nc1ccc(Br)cn1 |  | U317-8 Clinical isolate NRTI-resistant | RT-M41L L210W T215Y | plaque count | HT4 + HeLa | 0.0479 µM
CCn1nc(Cc2ccc(Cl)cc2)cc1C1CCN(C[C@H]2CN([C@@H](C(=O)O)C3CCCCC3)C[C@@H]2c2cccc(F)c2)CC1 |  | BaL |  | β-galactosidase | HeLa | <0.0004 µM
Cc1cc(C#N)cc(C)c1Oc1nc(Nc2ccc(C#N)cc2)nc(N)c1Br |  | 35764-2 |  | absorbance | PBMC | 0.0007 µM
CC(C)CN(C[C@@H](O)[C@H](Cc1cc(F)cc(F)c1)NC(=O)O[C@H]1CCO[C@H]2OCC[C@H]21)S(=O)(=O)c1ccc2nc(NC(C)C)sc2c1 |  | 92UG029 |  | p24 / luminescence | PBMC | 0.0022 µM
CCn1nc(Cc2ccc(F)c(F)c2)cc1C1CCN(C[C@H]2CN([C@@H](C(=O)O)C(C)C)C[C@@H]2c2cccc(F)c2)CC1 | 50% human serum | BaL |  | β-galactosidase | HeLa | <0.3 µM
CCCc1cc(=O)oc2c3c(c4c(c12)OC(C)(C)C=C4)O[C@@H](C)[C@H](C)[C@@H]3O |  | NL4-3 1 (RT K101E) | RT-K101E | XTT | CEM + CEM-SS | 2.9 µM
C#C[C@]1(CO)O[C@@H](n2cnc3c(N)nc(F)nc32)C[C@@H]1O |  | Clinical isolate | M184V | single cycle / fluorescence | PBMC | 0.00107 µM
CCc1c(C(=O)c2cc(C)cc(C)c2)n(CC2CC=CC2)c(=O)[nH]c1=O |  | IIIB |  | cytopathic effect / XTT | CEM + CEM-SS | 0.002 µM
Cc1ccc(S(=O)(=O)N(CC(C)C)C[C@@H](O)[C@H](Cc2ccccc2)NC(=O)O[C@H]2CO[C@H]3OCC[C@H]32)cc1 |  | IIIB | I401T R409K D437N | p24 / ELISA | MT-2 | 0.008 µM
CC(=O)N1CCC(C(=O)N(CCCN2CCC(Cc3ccc(C(N)=O)cc3)CC2)c2ccc(C)c(Cl)c2)CC1 |  | R5 subtype C_3 recombinant |  | luciferase | U87 (CD4+ CCR5+) + U87 | 0.0045 µM
CC(C)CN(C[C@@H](O)[C@H](Cc1ccccc1)NC(=O)O[C@H]1CCOC1)S(=O)(=O)c1ccc(N)cc1 |  | NL4-3 |  | p24 / luminescence | MT-4 | 0.037 µM
Cc1ccnc2c1NC(=O)c1cccnc1N2C1CC1 |  | IIIB |  | XTT | MT-2 | 0.1 µM
CCN[C@H]1CO[C@@H]2OCC[C@H](OC(=O)N[C@@H](Cc3cccc(OC)c3)[C@H](O)CN(CC(C)C)S(=O)(=O)c3ccc4nc(NC(C)C)sc4c3)[C@@H]21 |  | NL4-3 | L10I I15V K20R L24I V32I M36I M46I I54V I62V L63P K70Q V82A L88M | p24 / luminescence | MT-4 | 0.0018 µM
COC(=O)N[C@H](C(=O)N[C@@H](Cc1ccccc1)[C@@H](O)CN(Cc1ccc(-c2ccccn2)cc1)NC(=O)[C@@H](NC(=O)OC)C(C)(C)C)C(C)(C)C | clinical isolate, multidrug-resistant | Clinical isolate | L10I K14R L33I M36I M46I F53I K55R I62V L63P A71V G73S V82A L90M I93L | p24 / luminescence | PBMC | 0.467 µM
CCCc1cc(=O)oc2c3c(c4c(c12)OC(C)(C)C=C4)O[C@H](C)[C@@H](C)[C@@H]3O |  | Costatolide-resistant (RT Y188H) | RT-Y188H | XTT | CEM + CEM-SS | >27 µM
COc1ccc(S(=O)(=O)N(CC(C)C)C[C@@H](O)[C@H](Cc2ccccc2)NC(=O)O[C@H]2CCO[C@H]3OC[C@H](O)[C@H]32)cc1 |  | NL4-3 | L10I I54V K20R L24I V32I L33F M36I M46I I54M L63P K70Q V82I I84V L89M | p24 / luminescence | MT-4 | 0.581 µM

For reference, 4 entries again:

compound,conditions,strain,changes,method,cell line,value
CC[C@H](C)[C@H](C(=O)O)N1C[C@H](CN2CCC(c3cc(Cc4ccc(Oc5ccccc5)cc4)nn3CC)CC2)[C@@H](c2cccc(F)c2)C1,50% human serum,BaL,,β-galactosidase,HeLa,<0.1 µM
COC(=O)N[C@H](C(=O)N[C@@H](Cc1ccccc1)[C@@H](O)CN(Cc1ccc(-c2ccccn2)cc1)NC(=O)[C@@H](NC(=O)OC)C(C)(C)C)C(C)(C)C,,IIIB,ATV-P36 atazanavir-resistant mutant,ATP,MT-2,>0.67 µM
CC[C@H](C)[C@H](C(=O)O)N1C[C@H](CN2CCC(c3cc(Cc4ccc5ccccc5c4)nn3CC)CC2)[C@@H](c2cccc(F)c2)C1,50% human serum,BaL,,β-galactosidase,HeLa,<0.3 µM
CC(C)=CCN1Cc2cccc3[nH]c(=S)n(c23)C[C@@H]1C,,Costatolide-resistant (RT L100I T139I),RT-L100I T139I,XTT,CEM + CEM-SS,>35 µM

ECn: concentration that inhibits the pathogen or its effect by n%. Neighbouring rows are from separate reports.